Measured values published in PMC9342713.

Target: T1, DitR (Stenotrophomonas maltophilia K279a) (UniProt B2FL17)
T1 sequence (looked up): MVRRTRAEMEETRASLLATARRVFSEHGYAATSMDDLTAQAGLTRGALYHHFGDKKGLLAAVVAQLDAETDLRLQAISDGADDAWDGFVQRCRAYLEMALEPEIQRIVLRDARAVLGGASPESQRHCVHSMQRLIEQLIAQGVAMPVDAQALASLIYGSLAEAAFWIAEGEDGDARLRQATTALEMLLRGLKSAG
Test: EMSA
Conditions: 50 nM DitR, 0 mM diamide; recombinant protein; residues 1-195; protein details: 6xHis (pETBlue-2, NcoI/XhoI); label: 32P (primer-labeled); probe letters rebuilt from the primers and the genome

Does “GGGGGCGGCGAACAGGTCGCGGTAGGGGGTGGCCATCGGGATCTCCAGGGCAGCGGCTTGCCTGGCGCTCCCGGCGCCACGACAATACATACAGAGCGTATGAATAAGAGCCTACATTCATACGCGTCGTATGTAAATAATCATGCACTGCGTATGTAAGGAGCTCCGGATGGTCCGTCGCACCCGCGCCGAAATGGAAGAAAC (double strand) [mfsBC promoter fragment, 204 bp]” bind?
Result: binds

For at least one entry, the source does not settle the construct or the ends of the probe. At least one verdict rests on a figure or table, not on a statement of the authors. Protein sequences can lack the tags named with them.
